Source: PubChem BioAssay AID624416 (The Scripps Research Institute Molecular Screening Center, 2012)
The list shows a part of the results, in another mix than the full data. Activity calls are given as the source filed them. No stated cut-off is given here; in the data, active means inhibition above about 8.5%; inactive means the rest.

What follows are compounds tested on HIV-1 gp120 / PG9 antibody interaction (assay: small molecules engaging PG9 antibody – biochemical, TR-FRET, primary screen (AID 624416)). Details: TR-FRET gp120-PG9 antibody binding; at 6.7 µM; stronger effect = higher value.

Structure (SMILES)	inhibition
COP1(=S)c2c(C)nn(CCC#N)c2N=C(c2ccc(F)cc2)N1C (stereo unspecified)	inactive: -0.16%
COC(=O)C1(C)COP(=O)(N2CCCC2)OC1 (stereo unspecified)	inactive: -1.47%
O=C(O)C(=O)c1ccc(N(CCCl)CCCl)cc1	inactive: -2.52%
O=C(COc1ccccc1)OC1CN2CCC1CC2 (stereo unspecified)	inactive: 0.22%
O=C(Nc1ccncc1[N+](=O)[O-])c1ccc([N+](=O)[O-])cc1[N+](=O)[O-]	inactive: 0.41%
O=C(OC1CN2CCC1CC2)c1cccc([N+](=O)[O-])c1 (stereo unspecified)	inactive: -2.76%
CCOC(=O)c1ccc(NC(=O)C(C)(CCl)SC)cc1 (stereo unspecified)	inactive: -4.16%
CCC(C)N(CC(C)C)C(=S)SC(NC(C)=O)C(Cl)(Cl)Cl (stereo unspecified)	inactive: -2.01%
O=C(O)C(O)c1ccc(N(CCCl)CCCl)cc1 (stereo unspecified)	inactive: -0.05%
CCOC(=O)Nc1ccc([As](=O)(O)O)c(O)c1	inactive: 0.33%
CC1CCNP(=O)(N(CCCl)CCCl)O1 (stereo unspecified)	inactive: -0.4%
COP(=O)(OC)N1CC1c1ccccc1 (stereo unspecified)	inactive: -0.41%
CCCCOc1ccc(C(=O)NCC2(N3CCCCC3)CCCCC2)cc1OC	inactive: -2.42%
Cc1cc(SC(NC(=O)c2ccccc2)C(Cl)(Cl)Cl)nc(C(C)C)n1 (stereo unspecified)	inactive: 0.24%
CCOC(=O)Nc1cccc([As](=O)(O)O)c1	inactive: 1%
Cc1cc(SC(NC=O)C(Cl)(Cl)Cl)ncn1 (stereo unspecified)	inactive: -2.58%
O=P(Nc1ccccn1)(c1cccc2ccccc12)c1cccc2ccccc12	inactive: -1.72%
O=[N+]([O-])c1ccc(Nc2ccc(Oc3ccc([N+](=O)[O-])cc3[N+](=O)[O-])cc2)c([N+](=O)[O-])c1	inactive: 1.28%
O=[As](O)(c1ccc(O)cc1)c1ccccc1O	inactive: -0.7%
C[As](=O)(O)c1cccc(C(=O)O)c1	inactive: -1.71%
COc1cc(C(=O)NCC2(N3CCOCC3)CCCCC2)ccc1OCC(C)C	inactive: -1.95%
O=[N+]([O-])c1ccc(-c2cc([N+](=O)[O-])c(O)c([N+](=O)[O-])c2)cc1	inactive: 0.52%
Cc1ccc(OP(=O)(Nc2ccc([N+](=O)[O-])cn2)Oc2ccc(C)cc2)cc1	inactive: 1.23%
[N-]=[N+]=NC1CCCCC1NC(=O)c1cc([N+](=O)[O-])cc([N+](=O)[O-])c1 (stereo unspecified)	inactive: -1.11%
Cc1ccc2nc3c(c(C)c2c1)CC(C(Cl)Cl)S3 (stereo unspecified)	inactive: -0.42%
ClCCSc1nnc(-c2cccnc2)o1	inactive: -1.59%

Structure (SMILES)	inhibition
CC(C)c1ccc(OP(=O)(Nc2ccccn2)Oc2ccccc2F)cc1 (stereo unspecified)	inactive: 0.3%
COC(=O)C1(C)COP(=O)(N2CCCCCC2)OC1 (stereo unspecified)	inactive: -0.22%
CCN(CC)C(=S)SC(NC=O)C(Cl)(Cl)Cl (stereo unspecified)	inactive: -1.01%
O=C(OC1CN2CCC1CC2)c1cccc2[nH]cnc12 (stereo unspecified)	inactive: 0.02%
CC(C)NC(=O)NP(=O)(Oc1ccccc1)Oc1ccccc1	inactive: 0.7%
Cc1c2c(nc3ccccc13)SC(C(Cl)Cl)C2 (stereo unspecified)	inactive: -3.43%
O=C(OC1CN2CCC1CC2)C12CC3CC(CC(C3)C1)C2 (stereo unspecified)	inactive: 1.16%
Cc1cc(=O)[nH]c(N[N+](=O)[O-])n1	inactive: -0.06%
O=P1(N(CCCl)CCCl)Nc2ccccc2N1	inactive: -1.83%
O=P1(N(CCCl)CCCl)OCCCN1CCCl (stereo unspecified)	inactive: -1.82%
COc1ccc2nc(NP(=O)(c3ccccc3)c3ccccc3)sc2c1	inactive: -0.14%
COc1cc(I)ccc1[As](=O)(O)O	inactive: 2.22%
O=[N+]([O-])c1cc(Oc2ccc([N+](=O)[O-])cc2C(F)(F)F)cc([N+](=O)[O-])c1	inactive: -0.74%
COc1ccc(N/C(=N/P(=O)(N2CCOCC2)N2CCOCC2)N2CCOCC2)cc1	inactive: 0.95%
O=C(OC1CN2CCC1CC2)c1ccc(Cl)cc1 (stereo unspecified)	inactive: 0.99%
COc1cc(C(=O)NCC2(N3CCOCC3)CCCCC2)cc(Cl)c1OC(C)C	inactive: -1.74%
O=[As](O)(O)c1cccnc1	inactive: -1.36%
CS(=O)(=O)c1ccc(Cl)c(NC(=O)COC(=O)C(O)(c2ccccc2)c2ccccc2)c1	inactive: -1.58%
O=[As](O)(c1cccc(O)c1)c1cccc(O)c1	inactive: 1.4%
Cc1cccc(OCC(=O)OC2CN3CCC2CC3)c1 (stereo unspecified)	inactive: -1.82%
Cc1ccc(NCCc2c([N+](=O)[O-])cc([N+](=O)[O-])cc2[N+](=O)[O-])cc1	inactive: -0.89%
Nc1cccc2c([As](=O)(O)O)cccc12	inactive: -3.43%
CCCOP(=S)(Nc1nc(N)cc(=O)[nH]1)OCCC	inactive: 0.48%
COc1cc(C2NCCC3(OCCO3)C2(C)C)cc(OC)c1OC (stereo unspecified)	inactive: -0.88%
CCOP(=O)(Nc1cccc2ccccc12)OCC	inactive: -0.38%
CCOP1(=S)c2c(C)nn(CCC#N)c2N=C(c2ccccc2F)N1C (stereo unspecified)	inactive: 0.79%

Structure (SMILES)	inhibition
O=P(Nc1nccs1)(Oc1ccccc1)Oc1ccccc1	inactive: 1.24%
O=C(O)COc1ccc([As](=O)(O)O)cc1[N+](=O)[O-]	inactive: -0.78%
Nc1ccccc1[As](=O)(O)c1ccccc1	inactive: 0.07%
NC(=O)Nc1ccc([As](=O)(O)O)cc1	inactive: 0.47%
N#CCCN(C(=O)COC(=O)C(O)(c1ccccc1)c1ccccc1)c1ccc(F)cc1	inactive: -0.98%
CN(C(=O)Cc1ccccc1)[C@@H]1CC[C@]2(CCCO2)C[C@H]1N1CCCC1	inactive: -1.51%
CCOP1(=S)c2c(C)nn(CCC#N)c2N=C(c2ccc(F)cc2)N1C (stereo unspecified)	inactive: 0.14%
CN(C)C(=O)c1cc([N+](=O)[O-])cc2c1-c1c(cc([N+](=O)[O-])cc1[N+](=O)[O-])C2=O	inactive: -2.96%
O=[N+]([O-])c1ccc2c(c1)nnn2O	inactive: 1.67%
CN(C(=O)Cc1ccc(Cl)c(Cl)c1)[C@H]1CC[C@@]2(CCCO2)C[C@@H]1N1CCCC1	inactive: -1.11%
Cc1nn(-c2ccccc2)c2c1P(=O)(N1CCOCC1)N(C)C(c1ccccc1)=N2 (stereo unspecified)	inactive: -1.62%
Cc1ccc(C(=O)OC2CN3CCC2CC3)cc1 (stereo unspecified)	inactive: -1.45%
CC1CCC(C(C)C)C(OP(=O)(Nc2ccccn2)c2ccccc2)C1 (stereo unspecified)	inactive: -1.46%
CN(C)C1(CNC(=O)c2ccc(S(C)(=O)=O)cc2)CCCCC1	inactive: 0.65%
O=C(/C=C/c1ccccc1)OC1CN2CCC1CC2 (stereo unspecified)	inactive: 1.18%
CCCC1OP(=O)(Nc2ccccc2)OCC1CC (stereo unspecified)	inactive: 0.13%
Cc1ccc(S(=O)(=O)N(CCCN)CCCc2c(C)nc(N)[nH]c2=O)cc1	inactive: 1.22%
O=P1(Nc2ncccn2)COc2ccccc2OC1	inactive: 1.67%
Nc1cccc([As](=O)(O)c2ccccc2)c1	inactive: 0.28%
NS(=O)(=O)c1cccc(NC(=O)COC(=O)C(O)(c2ccccc2)c2ccccc2)c1	inactive: -0.28%
O=P1(Nc2ccc(Br)cn2)COc2ccccc2OC1	inactive: -1.68%
Cc1ccc(OCC(=O)OC2CN3CCC2CC3)cc1 (stereo unspecified)	inactive: 0.61%
O=[As](O)(c1cccs1)c1cccs1	inactive: 0.97%
CCC1=CC2Cc3nc4ccc(Cl)cc4c(N)c3C(C1)C2 (stereo unspecified)	inactive: 0.42%
O=P1(Nc2ccccn2)COc2ccccc2OC1	inactive: -0.37%
CCOP(=O)(NC(=NC(C)c1ccccc1)NC(C)c1ccccc1)OCC (stereo unspecified)	inactive: -1.62%

Structure (SMILES)	inhibition
CN(CCCl)Cc1cc(Cl)c(NC2=NCCN2)c(Cl)c1	inactive: -0.06%
CCOP(=O)(Nc1ccc(C)cn1)OCC	inactive: 1.31%
Clc1n[nH]nc1-c1nn[nH][15n]1	inactive: -0.13%
O=P1(N(CCCl)CCCl)NCCC(C(F)(F)F)O1 (stereo unspecified)	inactive: 1.07%
CC(C)(C)C(=O)NC(Sc1ncccn1)C(Cl)(Cl)Cl (stereo unspecified)	inactive: -0.27%
COc1ccccc1CNC(=O)COC(=O)C(O)(c1ccccc1)c1ccccc1	inactive: -0.82%
CN(C(=O)Cc1ccc(Cl)c(Cl)c1)[C@@H]1CCCC[C@H]1N1CCCC1	inactive: 0.34%
CC(C)/C=N\N=C(\N)N[N+](=O)[O-]	inactive: -0.8%
CN(C(=O)Cc1ccc(Cl)c(Cl)c1)C1CCCC[C@@H]1N1CCCC1 (stereo partly specified)	inactive: -0.33%
CC1(CBr)Cn2c(nc3ccccc3c2=O)S1 (stereo unspecified)	inactive: 1.34%
O=P(Nc1nccs1)(c1ccccc1)c1ccccc1	inactive: 1.79%
CC(C)C(=O)NC(Sc1ccccc1)C(Cl)(Cl)Cl (stereo unspecified)	inactive: -1.22%
c1nnnn1CCn1cnnn1	inactive: 0.26%
CN(C)C1(CNC(=O)c2ccc(Cl)c(S(N)(=O)=O)c2)CCCCC1	inactive: -1.43%
O=P(Nc1ccccn1)(c1ccc(Br)cc1)c1ccc(Br)cc1	inactive: -2.6%
Nc1ccc(CCCCOc2ccccc2)cc1	inactive: -0.08%
COc1ccc(N)c([N+](=O)[O-])c1[N+](=O)[O-]	inactive: -3.62%
O=P(Nc1nc2ccccc2s1)(c1ccccc1)c1ccccc1	inactive: 1.81%
C[C@H]1OP(=O)(Oc2ccccc2)[C@H](O)[C@H](O)[C@H]1N=[N+]=[N-] (stereo partly specified)	inactive: 1.24%
O=[As](O)(c1ccccc1)c1ccc(O)cc1	inactive: 0.49%
CC(=O)NC(SC(=S)N(C)C)C(Cl)(Cl)Cl (stereo unspecified)	inactive: -0.87%
O=[N+]([O-])c1ncn(CCn2cnc([N+](=O)[O-])n2)n1	inactive: -1.9%
O=C(OC1CN2CCC1CC2)c1cccc(Cl)c1 (stereo unspecified)	inactive: -1.95%
